“Also recorded” adds a separate entry of the source.

By UniProt entry, the sequences of proteins in these tests, tags left out. Residues count along the entry.
UniProt P36544, 23-502 limits assumed: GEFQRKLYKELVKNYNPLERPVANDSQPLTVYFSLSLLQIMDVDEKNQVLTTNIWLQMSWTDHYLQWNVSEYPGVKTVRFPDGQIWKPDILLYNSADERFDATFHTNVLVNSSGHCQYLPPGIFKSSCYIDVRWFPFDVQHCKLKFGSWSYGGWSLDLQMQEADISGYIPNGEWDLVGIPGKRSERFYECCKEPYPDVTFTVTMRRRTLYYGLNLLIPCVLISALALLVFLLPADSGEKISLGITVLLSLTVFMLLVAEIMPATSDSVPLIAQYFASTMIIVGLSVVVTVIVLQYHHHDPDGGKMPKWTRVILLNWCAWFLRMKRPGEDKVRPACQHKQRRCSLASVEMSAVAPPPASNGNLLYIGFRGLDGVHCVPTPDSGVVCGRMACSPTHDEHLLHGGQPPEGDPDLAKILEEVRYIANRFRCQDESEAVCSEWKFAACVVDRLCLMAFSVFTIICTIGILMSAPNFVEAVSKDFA

The test system of series [1] is mice. Nature of the series: Autonomic movement (open field, tail suspension and forced swimming tests together). Conditions: 5 mg/kg i.p., vs control.
For series [2], the system named is mice. The experiment in a line: Hot-plate test model. To be noted: i.p., cotx 2.1 1, cotx 2.13 1.5 mg/kg, vs BuIA 1.5 and cotx 1.1 2 mg/kg. In general terms: Thermal pain tests record how soon the animal reacts.
Series [3] relates to calcium channel on the DRG cell surface. Nature of the series: Whole-cell patch clamp (QPatch-16). To be noted: cotx 2.1 and cotx 2.13 vs BuIA and cotx 1.1.
For another series, the target named is human α7 nAChR (Homo sapiens, UniProt P36544). The experiment in a line: Microscale thermophoresis (MST) affinity. Conditions: read-out: EC50 (affinity with functional α7 nAChR), Cy5-labelled human functional α7 nAChR, Monolith NT.115, 5 min, room temperature. (In general: In MST a laser heats a spot of the sample, and binding alters the fluorescence response.)

The subject of series [4] is mice. The experiment in a line: Open field test. To be noted: 5 mg/kg i.p., 5 min, n = 10; vs control.
The test system of series [5] is mice. The experiment in a line: Tail suspension test. Conditions: 5 mg/kg i.p., 5 min, n = 10; vs control.
Series [6] has as its system C. elegans. Nature of the series: Hatching inhibition rate of C. elegans. To be noted: C. elegans eggs, 22 °C, 24 h, three wells; vs M9 buffer control.
The subject of series [7] is C. elegans. The experiment in a line: Reproduction of C. elegans. Conditions: L4-larvae, 22 °C, 72 h; vs M9 buffer control.
The subject of series [8] is C. elegans. The experiment in a line: Body bending and head swing frequency of C. elegans. Conditions: L1-larvae, 22 °C, 48 h, counted within 1 min, three wells; vs M9 buffer control.
Series [9] relates to mice. Nature of the series: Forced swimming test. Conditions: 5 mg/kg i.p., 5 min, n = 10; vs control.

For the compound `CC(C)C[C@@H]1NC(=O)[C@H](C(C)C)NC(=O)[C@H](C)NC(=O)[C@H](CO)NC(=O)[C@@H]2CCCN2C(=O)[C@@H]2CCCN2C(=O)[C@H]([C@@H](C)O)NC(=O)[C@H](CO)NC(=O)[C@@H](NC(=O)[C@H](CO)NC(=O)CN)CSSC[C@@H](C(N)=O)NC(=O)[C@H](Cc2ccc(O)cc2)NC1=O`, the “autonomic movement, in words” value in the series with mice [1] was “did not affect the autonomic movement of mice”. Besides, the “efficacy time (onset) compared with BuIA and cotx 1.1, in words” value with mice [2] was “quicker than BuIA and cotx 1.1”. Besides, the “inhibition of calcium channel compared among BuIA and analogues, in words” value in [3] is “stronger than BuIA and cotx 1.1; also recorded: significantly higher than BuIA and cotx 1.1”.

Regarding `C[C@@H](O)[C@@H]1NC(=O)[C@H](CO)NC(=O)[C@H](CO)NC(=O)[C@@H](NC(=O)CN)CSSC[C@@H](C(N)=O)NC(=O)[C@@H]2CCCN2C(=O)[C@@H]2CCCN2C1=O`, the “autonomic movement, in words” value with mice [1] is given as “did not affect the autonomic movement of mice”.

A word on the EC50: it is the concentration giving half of the maximal effect. On to `CC(C)C[C@@H]1NC(=O)[C@H](C(C)C)NC(=O)[C@H](C)NC(=O)[C@@H]2CSSC[C@H](NC(=O)CN)C(=O)N[C@@H](CSSC[C@@H](C(N)=O)NC(=O)[C@H](Cc3ccc(O)cc3)NC1=O)C(=O)N[C@@H](CO)C(=O)N[C@@H]([C@@H](C)O)C(=O)N1CCC[C@H]1C(=O)N1CCC[C@H]1C(=O)N2`, for which the EC50 at human α7 nAChR was determined as 19.7 nM. Moreover, in the series with mice [4], the “open field: center distance, in words” value was “significantly lower than the other groups (p < 0.05)”; the “open field: frequency entering peripheral area, in words” value is “significantly lower than the other groups (p < 0.05)”; the “open field: peripheral distance, in words” value is reported as “significantly lower than the other groups (p < 0.05)”; the “open field: residence time in central area, in words” value is on record as “significantly lower than the other groups (p < 0.05)”. Further, in the series with mice [4], the “open field: residence time in peripheral area, in words” value is “significantly higher than the other groups (p < 0.05)” and the “open field: total distances, in words” value is reported as “significantly lower than the other groups (p < 0.05)”. Besides, the “autonomic movement, in words” value with mice [1] is reported as “weakened the autonomous movement of mice significantly (p < 0.05)”. In addition, the “tail suspended motion times, in words” value with mice [5] is “significantly lower than the other groups (p < 0.05)”. Moreover, in the series on C. elegans [6], the “hatching inhibition rate, in words” value is “significantly higher than the other groups (P<0.05); also recorded: significantly higher than the control group and analogue groups (P<0.05)”. Moreover, the “reproduction (number of offspring), in words” value with C. elegans [7] was “significantly lower than the other groups (P<0.05); also recorded: significantly lower than the control group and analogue groups (P<0.05)”. Also, in the series on C. elegans [8], the “body bending frequency, in words” value is “significantly lower than the other groups (P<0.05); also recorded: significantly lower than the control group and analogue groups (P<0.05)”; the “head swing frequency, in words” value was “significantly lower than the other groups (P<0.05); also recorded: significantly lower than the control group and analogue groups (P<0.05)”. For the same compound, in the series on mice [9], the “forced swimming times, in words” value is reported as “significantly lower than the other groups (p < 0.05)”.

Turning to `CC(C)C[C@@H]1NC(=O)[C@H](C(C)C)NC(=O)[C@H](C)NC(=O)[C@H](CC(=O)O)NC(=O)[C@@H]2CCCN2C(=O)[C@@H]2CCCN2C(=O)[C@H]([C@@H](C)O)NC(=O)[C@H](CO)NC(=O)[C@@H](NC(=O)[C@@H](N)CCCCN)CSSC[C@@H](C(N)=O)NC(=O)[C@H](Cc2ccc(O)cc2)NC1=O`, the “autonomic movement, in words” value in the series with mice [1] is “did not affect the autonomic movement of mice”. Moreover, the “efficacy time (onset) compared with BuIA and cotx 1.1, in words” value with mice [2] was “quicker than BuIA and cotx 1.1”. Also, in series [3], the “inhibition of calcium channel compared among BuIA and analogues, in words” value was “stronger than BuIA and cotx 1.1; also recorded: significantly higher than BuIA and cotx 1.1”.

The values above are taken from paper PMC6358911, “Rationally Designed α-Conotoxin Analogues Maintained Analgesia Activity and Weakened Side Effects” (2019).
